Target: the molecule itself
Test: NMR (1H-15N HSQC, NOESY and ROESY)

EAGPQGLPGPKGDRGEAGP [Lcl-CLR peptide (collagen-like repeat consensus peptide, 19 residues)]
stoichiometry N: 3
